Pooled drug test results. Numbers come from NIAID ChemDB, via PubChem.

All rows: growth or infection tests; agent: Herpes simplex virus 1; method: virus yield; read-out: inhibition

An empty or dashed field is not shown. Lines come from different laboratories, so protocols vary. Inhibition is in % at the dose shown (toxicity tests: loss of growth or viability).

{"structure": "Nc1ncnc2c1ncn2[C@@H]1O[C@H](CO)[C@@H](O)[C@@H]1O", "cells": "HL", "tested at": "1 µg/mL", "strain or isolate": "F", "result": "71%"}
{"structure": "COc1ccc(-n2[nH]c3c(cnc4ccc(C)cc43)c2=O)cc1", "cells": "VERO", "tested at": "100 µM", "result": "22%"}
{"structure": "O=C1Nc2ccccc2C1=O", "cells": "VERO", "tested at": "50 µM", "result": "0%"}
{"structure": "O=c1ccn([C@@H]2O[C@H](CO)[C@@H](O)[C@@H]2F)c(=O)[nH]1", "cells": "VERO", "tested at": "10 µM", "strain or isolate": "F", "result": "99.2%"}
{"structure": "Cc1cccc2nc3c(cnc4c3cnn4-c3ccccc3)c(Cl)c12", "tested at": "50 µM", "result": "68%"}
{"structure": "COc1cccc2c1C(=O)c1c(O)c3c(c(O)c1C2=O)C[C@@](O)(C(C)=O)C[C@@H]3O[C@H]1C[C@H](N)[C@H](O)[C@H](C)O1", "cells": "VERO", "tested at": "1 µM", "result": "24%"}
{"structure": "O=C1Nc2ccc(Cl)cc2C1=O", "cells": "VERO", "tested at": "50 µM", "result": "28%"}
{"structure": "COc1cccc2nc3c(cnc4c3cnn4-c3ccccc3)c(Cl)c12", "tested at": "50 µM", "result": "50%"}
{"structure": "O=c1ccn([C@H]2C[C@H](O)[C@@H](CO)O2)c(=O)[nH]1", "cells": "HeLa", "tested at": "50 µM", "result": "80%"}
{"structure": "Cc1cn([C@@H]2O[C@H](CO)[C@@H](O)[C@@H]2F)c(=O)[nH]c1=O", "cells": "VERO", "tested at": "2.5 µM", "strain or isolate": "F", "result": "92.5%"}
{"structure": "Cc1ccc2c(c1)c1nn(-c3ccc(F)cc3)c(=O)c-1cn2C1O[C@H](CO)[C@@H](O)[C@H]1O", "cells": "VERO", "tested at": "100 µM", "result": "15%"}
{"structure": "Nc1ccn([C@H]2O[C@@H](CO)[C@H](O)[C@H]2F)c(=O)n1", "cells": "VERO", "tested at": "0.5 µM", "strain or isolate": "F", "result": "40%"}
{"structure": "Clc1cccc2nc3c(cnc4c3cnn4-c3ccccc3)c(Cl)c12", "tested at": "50 µM", "result": "80%"}
{"structure": "Nc1nc2c(ncn2COCCO)c(=O)[nH]1", "cells": "VERO", "tested at": "0.3 µg/mL", "strain or isolate": "7401H", "result": "98%"}
{"structure": "COc1ccc(-n2nc3c4cc(C)ccc4n(C4O[C@H](CO)[C@@H](O)[C@H]4O)cc-3c2=O)cc1", "cells": "VERO", "tested at": "100 µM", "result": "30%"}
{"structure": "Cc1ccc2c(c1)C(=O)C(=O)N2", "cells": "VERO", "tested at": "50 µM", "result": "0%"}
{"structure": "Nc1nc(=O)n([C@@H]2O[C@H](CO)[C@@H](O)[C@@H]2F)cc1I", "cells": "VERO", "tested at": "0.1 µM", "strain or isolate": "F", "result": "93.7%"}
{"structure": "Cc1ccc2ncc3c(=O)n(-c4ccc(Cl)cc4)[nH]c3c2c1", "cells": "VERO", "tested at": "100 µM", "result": "27%"}
{"structure": "C[C@]1(C(=O)O)C2CCc3cc4[nH]c5ccccc5c4cc3[C@@]2(C)CC[C@@H]1O", "cells": "VERO", "tested at": "0.5 µM", "strain or isolate": "KOS", "result": ">95%"}
{"structure": "Cc1ccc2c(Cl)c3cnc4c(cnn4-c4ccccc4)c3nc2n1", "tested at": "50 µM", "result": "11%"}

Again, the opening 2 rows:

| structure | cells | tested at | strain or isolate | result |
|---|---|---|---|---|
| Nc1ncnc2c1ncn2[C@@H]1O[C@H](CO)[C@@H](O)[C@@H]1O | HL | 1 µg/mL | F | 71% |
| COc1ccc(-n2[nH]c3c(cnc4ccc(C)cc43)c2=O)cc1 | VERO | 100 µM |  | 22% |